Test results reported in article PMC5278390 (Scientific Reports, 2017).

Molecular target: T1, HA Ig (extracellular part of the HA protein of influenza PR8 fused to human IgG1), biotinylated (influenza virus A/Puerto Rico/8/34 H1N1 …)
T1 construct: also called biotinylated HA Ig; biotin conjugated HA Ig
Assay: far-Western, overlay or dot blot
Conditions: both partners purified

B1: NKp46 Ig (extracellular part of human NKp46 fused to human IgG1) (Fc fusion, UniProt O76036 22-258, looked up)
chain: QQQTLPKPFIWAEPHFMVPKEKQVTICCQGNYGAVEYQLHFEGSLFAVDRPKPPERINKVQFYIPDMNSRMAGQYSCIYRVGELWSEPSNLLDLVVTEMYDTPTLSVHPGPEVISGEKVTFYCRLDTATSMFLLLKEGRSSHVQRGYGKVQAEFPLGPVTTAHRGTYRCFGSYNNHAWSFPSEPVKLLVTGDIENTSLAPEDPTFPADTWGTYLLTTETGLQKDHALWDHTAQNLLR
notes: It runs as two bands on reducing SDS-PAGE, which the authors take to be differently glycosylated products; also called NKp46 fusion protein; WT NKp46 Ig
Q: Does B1 bind?
A: binds

B2: NKp46 W32R Ig (extracellular part of human NKp46 W32R fused to human IgG1) (Fc fusion)
chain: QQQTLPKPFIRAEPHFMVPKEKQVTICCQGNYGAVEYQLHFEGSLFAVDRPKPPERINKVQFYIPDMNSRMAGQYSCIYRVGELWSEPSNLLDLVVTEMYDTPTLSVHPGPEVISGEKVTFYCRLDTATSMFLLLKEGRSSHVQRGYGKVQAEFPLGPVTTAHRGTYRCFGSYNNHAWSFPSEPVKLLVTGDIENTSLAPEDPTFPADTWGTYLLTTETGLQKDHALWDHTAQNLLR
notes: also called NKp46 W32R fusion protein
Q: Does B2 bind?
A: binds
